Data published in patent US20030190650A1 (priority 2000, published 2003).

System: primary human neutrophils
Assay: PAO and neutrophil survival (MTT)
Details: low doses of PAO (0.1-1 μM)

O=[As]c1ccccc1 (stereo not shown)
survival of neutrophils after 24 h in culture: increase the survival
